# Measured values published in patent publication US5817692A, “Endoperoxides useful as antiparasitic agents” (priority 1996, dated 1998).
# Tested on: Toxoplasma gondii
# Test: inhibition of intracellular replication of T. gondii in infected L929 cells, uracil incorporation assay
# Assay type: cell-based
# Details: 1 μM
# Protocol: Toxoplasma gondii is the causative agent of cerebral toxoplasmic encephalitis, an AIDS-related opportunistic infection. The biological activity of the endoperoxide JHU 2886 of the present invention was measured against Toxoplasma gondii cultured in L929 cells. The inhibitory activity of the synthetic organic endoperoxide was tested by measuring the intracellular replication of T. gondii in infected L929 cells. The inhibition of the intracellular replication of T. gondii was determined using the uracil incorporation assay (20). […] This compound is referred to as JHU 2886 in Table 1. In this experiment atovaquone and artemisinin were used as positive controls. Atovaquone is a broad-spectrum anti-infective drug having antimalarial and antitoxoplasmosis activity (19). | measured using the MTT assay (Promega kit) and inhibition of the | intracellular replication of T. gondii was determined using the uracil | incorporation assay.
row,SMILES,"therapeutic index (ratio of activity to toxicity), as activity/toxicity"
1,C[C@@H]1CC[C@H]2[C@@H](C)C(=O)O[C@@H]3O[C@@]4(C)CC[C@@H]1[C@]32OO4 [Artemisinin],76/10
2,O=C1C(O)=C([C@H]2CC[C@H](c3ccc(Cl)cc3)CC2)C(=O)c2ccccc21 [Atovaquone],95/17
3,c1ccc(C23CCCC(c4ccccc4)(CC2)OO3)cc1 [JHU 2886],70/0
